Pooled drug test results. Numbers come from NIAID ChemDB, via PubChem.

Common to all: whole-cell or culture tests; species: Varicella zoster virus; cells: MRC-5; measure: EC50

Blank or dashed fields: not listed here. Rows are shuffled and stem from different studies. ECn is the concentration giving n% inhibition of infection, replication or growth. Two numbers with a dash give a range or band.

smiles,strain or isolate,method,value
Nc1ncnc2c1ncn2OCC(CO)OCP(=O)(O)O,ELLEN,plaque count,210 µg/mL
Nc1nc2c(ncn2COC2COP(=O)(O)OC2)c(=O)[nH]1,KMCC,plaque count,0.6–1.2 µM
CC#Cc1cn([C@@H]2O[C@H](COP(=O)(O)OCC(Cl)(Cl)Cl)[C@@H](O)[C@@H]2O)c(=O)[nH]c1=O,G-31,plaque count,10–100 µM
Fc1ccccc1-c1cc2ccccn2c1,G-31,plaque count,>100 µM
COc1ncnc2c1ncn2[C@@H]1O[C@H](CO)[C@@H](O)[C@@H]1O,G-31,cytopathic effect,1.3 µM
C=Cc1cn([C@@H]2O[C@H](CO)[C@@H](O)[C@@H]2O)c(=S)nc1N,CAQU (TK+),plaque count,>266.3 µM
NC1=NC2C(C=CN2CC(CO)CCO)C(=O)N1,32,plaque count,0.72 µM
Nc1nc(=S)n([C@H]2C[C@H](O)[C@@H](CO)O2)cc1Cl,HOSEN,plaque count,6.51 µM
Nc1ccn(CSC(CO)CO)c(=O)n1,6350,plaque count,>50 µM
CC(C)(C)[Si](C)(C)OC[C@H]1O[C@@H](n2ccc(=O)[nH]c2=O)[C@H](O[Si](C)(C)C(C)(C)C)[C@@]12O[C@H]2C(=O)NN,-,plaque count,4 µM
Nc1nc2c(ncn2OCCOCP(=O)(O)O)c(=O)[nH]1,ELLEN,plaque count,0.2 µg/mL
CC#Cc1cn([C@@H]2O[C@H](COP(=O)(Oc3ccccc3)Oc3ccc([N+](=O)[O-])cc3)[C@@H](O)[C@@H]2O)c(=O)[nH]c1=O,G-31,plaque count,10–100 µM
O=c1[nH]c(=O)n(C[C@]2(CO)C[C@H]2CO)cc1/C=C/Br,6 isolates,plaque count,0.21 µg/mL
Cc1cn([C@H]2C[C@H](O)[C@@H](CO)O2)c(=S)nc1N,CAQU (TK+),plaque count,27.7 µM
CCOC(=O)CC1(O)[C@@H](CO[Si](C)(C)C(C)(C)C)O[C@@H](n2ccc(=O)[nH]c2=O)[C@@H]1O[Si](C)(C)C(C)(C)C,-,plaque count,>5 µM
CC#Cc1cn([C@@H]2O[C@H](COP(=O)(N[C@@H](C)C(=O)OC)Oc3ccccc3)[C@@H](O)[C@@H]2O)c(=O)[nH]c1=O,G-31,plaque count,>100 µM
CC(C)(C)[Si](C)(C)OC[C@H]1O[C@@H](n2ccc(=O)[nH]c2=O)[C@H](O[Si](C)(C)C(C)(C)C)C1(O)C(Cl)C(N)=O,-,plaque count,>5 µM
Nc1nc(N)c2ncn(OCCOCP(=O)(O)O)c2n1,ELLEN,plaque count,3.9 µM
CC#Cc1cn([C@@H]2O[C@H](COP(=O)(O)Oc3ccccc3Cl)[C@@H](O)[C@@H]2O)c(=O)[nH]c1=O,G-31,plaque count,100 µM
O=c1[nH]cnc2c1ncn2OCCOCP(=O)(O)O,ELLEN,plaque count,>340 µM
C[C@H]1[C@H](O)[C@@H](CO)O[C@H]1n1cc(Br)c(N)nc1=O,CAQU,plaque count,12 µg/mL
CCc1cn([C@@H]2O[C@H](CO)[C@@H](O)[C@@H]2O)c(=S)[nH]c1=O,CAQU (TK+),plaque count,>264.9 µM
Nc1nc2c(ncn2CCC(CO)CO)c(=O)[nH]1,Kawaguchi,plaque count,0.69 µg/mL
Nc1nc2c(ncn2CCC(CO)CO)c(=O)[nH]1,ELLEN,plaque count,2.4 µg/mL
NC1=NCCN1CC(=O)O,-,plaque count,4000 µM
c1ccn2cc(-c3ccsc3)cc2c1,G-31,plaque count,40 µM
COc1nc(N)nc2c1ncn2OCCOCP(=O)(O)O,ELLEN,plaque count,<0.09 µM
COc1nc(N)nc2c1ncn2OCCOCP(=O)(O)O,ELLEN,plaque count,<0.09 µg/mL
COC(O)[C@@H]1OC12[C@@H](CO[Si](C)(C)C(C)(C)C)O[C@@H](n1cc(C)c(=O)[nH]c1=O)[C@@H]2O[Si](C)(C)C(C)(C)C,-,plaque count,>20 µM
O=c1[nH]c(=S)n([C@@H]2O[C@H](CO)[C@@H](O)[C@@H]2O)cc1CCO,Kanno-Kohmura (TK-),plaque count,>244.8 µM
O=c1[nH]cnc2c1ncn2OCCOCP(=O)(O)O,ELLEN,plaque count,>340 µg/mL
Nc1nc(=S)n([C@@H]2O[C@H](CO)[C@@H](O)[C@@H]2O)cc1F,HOSEN,plaque count,186 µM
c1ccc(-c2cc3c4ccccc4ccn3c2)cc1,G-31,plaque count,>40 µM
CC#Cc1cn([C@@H]2O[C@H](COP(=O)(OCC)Oc3ccccc3)[C@@H](O)[C@@H]2O)c(=O)[nH]c1=O,G-31,plaque count,>100 µM
Nc1nc2c(ncn2COC(CO)CO)c(=O)[nH]1,KMCC,plaque count,1.2 µg/mL
Cc1cn([C@H]2C[C@H](O)[C@@H](CO)O2)c(=S)[nH]c1=O,HOSEN,plaque count,27.4 µM
CC#Cc1cn([C@@H]2O[C@H](COP(=O)(O)OCCCCCCCCCCCCCCCC)[C@@H](O)[C@@H]2O)c(=O)[nH]c1=O,G-31,plaque count,100 µM
C[C@H]1[C@H](O)[C@@H](CO)O[C@H]1n1cc(I)c(=O)[nH]c1=O,Kanno-Kohmura,plaque count,>50 µg/mL
O=c1[nH]c(=S)n([C@H]2C[C@H](O)[C@@H](CO)O2)cc1Br,HOSEN,plaque count,31.4 µM
CCc1cn([C@H]2C[C@H](O)[C@@H](CO)O2)c(=S)[nH]c1=O,Kanno-Kohmura (TK-),plaque count,>288.6 µM
Nc1nc(=S)n([C@@H]2O[C@H](CO)[C@@H](O)[C@@H]2O)cc1Cl,HOSEN,plaque count,244 µM
COC(=O)/C=C1/[C@@H](O[Si](C)(C)C(C)(C)C)[C@H](n2cc(C)c(=O)n(C)c2=O)O[C@@H]1CO[Si](C)(C)C(C)(C)C,-,plaque count,>7 µM
FC(F)(F)c1cc(Cl)c2cc(-c3ccccc3)cn2c1,G-31,plaque count,20–50 µM

Repeating the first 6 entries:

| smiles | strain or isolate | method | value |
|---|---|---|---|
| Nc1ncnc2c1ncn2OCC(CO)OCP(=O)(O)O | ELLEN | plaque count | 210 µg/mL |
| Nc1nc2c(ncn2COC2COP(=O)(O)OC2)c(=O)[nH]1 | KMCC | plaque count | 0.6–1.2 µM |
| CC#Cc1cn([C@@H]2O[C@H](COP(=O)(O)OCC(Cl)(Cl)Cl)[C@@H](O)[C@@H]2O)c(=O)[nH]c1=O | G-31 | plaque count | 10–100 µM |
| Fc1ccccc1-c1cc2ccccn2c1 | G-31 | plaque count | >100 µM |
| COc1ncnc2c1ncn2[C@@H]1O[C@H](CO)[C@@H](O)[C@@H]1O | G-31 | cytopathic effect | 1.3 µM |
| C=Cc1cn([C@@H]2O[C@H](CO)[C@@H](O)[C@@H]2O)c(=S)nc1N | CAQU (TK+) | plaque count | >266.3 µM |